Compound potency records, mixed from different reports. Data source: NIAID ChemDB in PubChem.

Common to all: target-level tests; species: HIV-1; target: gp120; measure: inhibition

An empty or dashed field is not shown. Inhibition is in % at the dose shown (toxicity tests: loss of growth or viability). Rows are shuffled and stem from different studies.

smiles | tested at | setting | strain or isolate | method | value
O=S(=O)(O)c1ccc(NS(=O)(=O)c2ccc(-c3ccc(S(=O)(=O)Nc4ccc(S(=O)(=O)O)c5cccc(S(=O)(=O)O)c45)cc3)cc2)c2c(S(=O)(=O)O)cccc12 | 100 µg/mL | - | - | fluorescence | 53%
O=C(O)c1ccc(-c2c3nc(c(-c4ccc(C(=O)O)cc4)c4ccc([nH]4)c(-c4ccc(C(=O)O)cc4)c4nc(c(-c5ccc(C(=O)O)cc5)c5ccc2[nH]5)C=C4)C=C3)cc1 | 60 µg/mL | - | - | - | 84.3%
NOCc1c(F)cccc1Cl | 100 µg/mL | - | - | ELISA | 21.7%
C[C@@H]1CN(C(=O)c2ccccc2)CCN1C(=O)C(=O)c1c[nH]c2ccccc12 | 0.1 µM | - | YU2 | ELISA | 65%
O=c1c(O)cc([C@H]2Oc3cc(O)cc(O)c3C[C@H]2O)cc2c([C@H]3Oc4cc(O)cc(O)c4C[C@H]3O)cc(O)c(O)c12 | 20 µM | - | - | ELISA | 16%
C1=Cc2nc1c(-c1ccncc1)c1ccc([nH]1)c(-c1ccncc1)c1nc(c(-c3ccncc3)c3ccc([nH]3)c2-c2ccncc2)C=C1 | 60 µg/mL | - | - | - | 66.4%
O=CC1OC(=O)c2cc(O)c(O)c(O)c2Oc2cc3c(c(O)c2O)-c2c(cc(O)c(O)c2O)C(=O)OCC2OC(OC(=O)c4cc(O)c(O)c(O)c4Oc4cc5c(c(O)c4O)-c4c(cc(O)c(O)c4O)C(=O)OC(C(O)COC5=O)C1OC(=O)c1cc(O)c(O)c(O)c1)C(OC(=O)c1cc(O)c(O)c(O)c1)C(OC(=O)c1cc(O)c(O)c(O)c1)C2OC3=O | 12.5 µg/mL | - | - | binding | 60.9%
CCC1=C(C)/C(=C/c2[nH]c(Cc3[nH]c(/C=C4\NC(=O)C(C)=C4CC)c(C)c3CCC(=O)O)c(CCC(=O)O)c2C)NC1=O | 60 µg/mL | - | - | - | 0.9%
O=CC(O)C(OC(=O)c1cc(O)c(O)c(O)c1)C1OC(=O)c2cc(O)c(O)c(O)c2-c2c(cc(O)c(O)c2O)C(=O)OCC1O | 3.13 µg/mL | - | - | binding | 39.1%
COC(=O)C(=O)N1CCC[C@@H]1C(=O)N[C@H](Cc1ccccc1)C(=O)OCc1ccccc1 | 500 µM | 1% FBS | - | ELISA | 27%
O=C(Oc1cc(O)cc2c1C[C@@H](OC(=O)c1cc(O)c(O)c(O)c1)[C@@H](c1cc(O)c(O)c(O)c1)O2)c1cc(O)c(O)c(O)c1 | 20 µM | - | - | ELISA | 0.8%
C=CC1=C(C)C2=NC1=CC1=NC(=Cc3[n-]c4c(c3C)=C([O-])[C@H](C(=O)OC)C=4C3=NC(=C2)[C@@H](C)[C@@H]3CCC(=O)OC/C=C(\C)CCCC(C)CCCC(C)CCCC(C)C)C(CC)=C1C.[Mg+2] | 60 µg/mL | - | - | - | 46%
CC(C)(CS(=O)(=O)[O-])[NH2+]C(=O)C(CC(F)(OC(F)(F)C(F)(OC(F)(F)C(F)(OC(F)(F)C(F)(F)C(F)(F)F)C(F)(F)F)C(F)(F)F)C(F)(F)F)C(F)(OC(F)(F)C(F)(OC(F)(F)C(F)(OC(F)(F)C(F)(F)C(F)(F)F)C(F)(F)F)C(F)(F)F)C(F)(F)F | 0.8 µg/mL | - | - | ELISA | 60%
C=Cc1c(C)c2cc3[nH]c(cc4nc(cc5nc(cc1[nH]2)C(C)=C5CCC(=O)O)C(CCC(=O)O)=C4C)c(C)c3C(C)O | 60 µg/mL | - | - | - | 83.7%
O=C(O[C@H]1Cc2c(O)cc(O)cc2O[C@@H]1c1cc(O)c(O)c(O)c1)c1cc(O)c(O)c(O)c1 | 20 µM | - | - | ELISA | 0.6%
O=C(OC[C@H]1O[C@@H](O)[C@@H]2OC(=O)c3cc(O)c(O)c(O)c3-c3c(cc(O)c(O)c3O)C(=O)O[C@H]2[C@@H]1OC(=O)c1cc(O)c(O)c(O)c1Oc1cc2c(c(O)c1O)-c1c(cc(O)c(O)c1O)C(=O)O[C@@H]1[C@@H](OC2=O)[C@H](OC(=O)c2cc(O)c(O)c(O)c2)O[C@@H]2COC(=O)c3cc(O)c(O)c(O)c3-c3c(cc(O)c(O)c3O)C(=O)O[C@@H]12)c1cc(O)c(OC(=O)c2cc(O)c(O)c(O)c2)c(O)c1 | 1.56 µg/mL | - | - | binding | 73.6%

Repeating the final 2 entries:

smiles,tested at,setting,strain or isolate,method,value
O=C(O[C@H]1Cc2c(O)cc(O)cc2O[C@@H]1c1cc(O)c(O)c(O)c1)c1cc(O)c(O)c(O)c1,20 µM,-,-,ELISA,0.6%
O=C(OC[C@H]1O[C@@H](O)[C@@H]2OC(=O)c3cc(O)c(O)c(O)c3-c3c(cc(O)c(O)c3O)C(=O)O[C@H]2[C@@H]1OC(=O)c1cc(O)c(O)c(O)c1Oc1cc2c(c(O)c1O)-c1c(cc(O)c(O)c1O)C(=O)O[C@@H]1[C@@H](OC2=O)[C@H](OC(=O)c2cc(O)c(O)c(O)c2)O[C@@H]2COC(=O)c3cc(O)c(O)c(O)c3-c3c(cc(O)c(O)c3O)C(=O)O[C@@H]12)c1cc(O)c(OC(=O)c2cc(O)c(O)c(O)c2)c(O)c1,1.56 µg/mL,-,-,binding,73.6%